# Target: neuraminidase (Influenza A virus, UniProt P03468)
# Amino acid sequences for entries named in this document (tags omitted).
# UniProt P03468, whole entry: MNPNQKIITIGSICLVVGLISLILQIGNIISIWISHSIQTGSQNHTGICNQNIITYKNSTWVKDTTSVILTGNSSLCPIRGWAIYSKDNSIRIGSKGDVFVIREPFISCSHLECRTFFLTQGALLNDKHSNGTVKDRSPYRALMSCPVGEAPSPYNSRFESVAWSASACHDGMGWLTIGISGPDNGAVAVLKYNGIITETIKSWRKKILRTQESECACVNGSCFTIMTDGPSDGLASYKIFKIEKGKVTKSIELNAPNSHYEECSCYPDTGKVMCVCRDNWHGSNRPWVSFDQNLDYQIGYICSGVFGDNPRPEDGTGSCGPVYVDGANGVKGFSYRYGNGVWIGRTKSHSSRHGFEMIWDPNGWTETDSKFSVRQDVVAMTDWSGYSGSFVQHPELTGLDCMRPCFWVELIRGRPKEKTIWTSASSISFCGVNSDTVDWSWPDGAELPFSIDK
row,Compound,IC50 [µM]
1,CC[C@H](C)O[C@@H]1C=C(C(=O)O)C[C@H](NC(=N)N)[C@H]1NC(C)=O,< 1
2,CC[C@@H](C)O[C@@H]1C=C(C(=O)O)C[C@H](NC(=N)N)[C@H]1NC(C)=O,< 1
